Measured values: patent US7129198B1, “Use of benzotriazole UV absorbers” (Ciba Specialty Chemicals Corporation, priority 1999, dated 2006)

Test: Demonstration of substantivity: UV absorber taken up by human hair from aqueous solution
Settings: at pH 9.5, 10 mmol/l aqueous solution, 15 minutes

For `CCCCCCCC[N+](CC)(CC)CCCNC(=O)CCc1cc(-n2nc3ccccc3n2)c(O)c(C(C)(C)C)c1.[Br-]` [compound of formula (108)], the “mg of UV absorber per g of hair” value (damaged (bleached) human hair) was 25 (at pH 9.5; damaged hair*) mg of UV absorber per g of hair and the “mg of UV absorber per g of hair” value (undamaged mid-blonde human hair) was 9 (at pH 9.5; undamaged hair*) mg of UV absorber per g of hair.
